Test results reported in PMC3702619.
The exact form of at least one protein or probe is not confirmed.

Biological target: PA3699 (Pseudomonas aeruginosa PAO1) (UniProt Q9HXU1)
Assay: EMSA
Settings: EMSA: 20 mM Tris-HCl pH 8.0, 2 mM EDTA, 5 mM MgCl2, 30 mM KCl, 5% glycerol, 0.025% NP-40, 30 ug/ml poly(dI):(dC), 0.2 nM probe, 15 min at 22 C; recombinant protein; protein details: N-terminal 6xHis (pET-28b) cleaved with thrombin; label: 32P (dATP fill-in with Klenow); probe letters rebuilt from the primers and the genome; part of a longer molecule

CGGTCGCACGCGTGGCGATGGGCCGACAGTGAACCCGGGGACCAGGTGTGACTGGGTATTCAGTTCGCATAAAATGTGATCTAGATCACATTTAAACGTTTGCTTACCCTCTAGGACGGGTATCGTACTAGGTGCATCAAACGCTGCGGTCTATTGTTAAGTGGGACTGAAATGTGCCTTTCCGGCACAACGCCAACTCTATAGAGTGGG (double strand) [PlasRp EMSA probe]
binding result: binds
